Results deposited as PubChem BioAssay AID504761 (Drosophila RNAi Screening Center, 2011)
The deposit covers about 22,000 reagents; this is a random part of those that have a named target and a result. In the full data, 116 (0.52%) got an active call. 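Calls depend on retest data that are not deposited; infection was ranked per plate without normalising between plates; the unit of the infection score is not given.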 The raw values are shown without normalisation. The numbers tell different reagents against one gene apart. Names joined by + are all predicted targets of the reagent. Further read-outs or replicates are left out here. Not stated in the record: the amount of reagent, the time to read-out.

Purpose: 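Genome-wide fly cell screen for genes dengue virus requires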 (primary screen)
System: D.Mel-2 cells from Drosophila
Knock-down reagent: long dsRNA against Drosophila genes
Conditions: infection with dengue virus type 2; dose and infection time not stated
Read-out: 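Cells stained for dengue envelope protein and imaged; percent of infected cells per well on duplicate plates, ranked by infection, with stained nuclei counted for cell number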
Direction: infection score: higher = more virus-infected cells; cell count: higher = more cells in the well
Hit rule: 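Low infection ranks in the two replicates (chance level up to 0.065) followed by a retest with a 1.5-fold or larger significant decrease, p below 0.05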
Meaning of the calls: active = confirmed: knock-down lowers infection; inactive = not picked or not confirmed

gene knocked down | dsRNA no. | infection score, replicate 1 | infection score, replicate 2 | cell count, replicate 1 | outcome
rod | 1 | 12.4 | 5.7 | 4642 | inactive
CR31846 (retired record) | 1 | 5.72 | 4.73 | 6068 | inactive
Ir21a | 1 | 1.45 | 11.9 | 6202 | inactive
IFT54 | 1 | 5.93 | 9.04 | 5781 | inactive
Lamtor3 | 1 | 20.7 | 3.17 | 3784 | inactive
CG1603 | 1 | 20 | 35.2 | 6356 | inactive
CG1603 | 2 | 12.6 | 13 | 6608 | inactive
Lcp65Ac | 1 | 1.11 | 4.59 | 5492 | inactive
Lcp65Ac | 2 | 8 | 10.7 | 6122 | inactive
CG34002 | 1 | 1.66 | 0.86 | 6020 | inactive
CG34002 | 2 | 3.22 | 0.42 | 6126 | inactive
CG34002 | 3 | 2.99 | 6.98 | 6757 | inactive
Smox | 1 | 0.81 | 16.7 | 6453 | inactive
EbpII | 1 | 24 | 51.4 | 6330 | inactive
EbpII | 2 | 4.03 | 5.49 | 5836 | inactive
EbpII | 3 | 8.26 | 24.2 | 835 | inactive
Vav | 1 | 3.51 | 2.24 | 5697 | inactive
Vav | 2 | 1.92 | 5.16 | 6087 | inactive
PGRP-LB | 1 | 6.53 | 19.1 | 3552 | inactive
sa | 1 | 5.54 | 2.27 | 6354 | inactive
CG17217 | 1 | 2.88 | 1.22 | 6255 | inactive
Vha55 | 1 | 0.22 | 11.9 | 454 | inactive
Vha55 | 2 | 3.04 | 4.69 | 1021 | inactive
CG5727 | 1 | 12.8 | 18.1 | 6449 | inactive
CG5727 | 2 | – | 12.4 | 355 | inactive

Next part, starting with the last 4 of the part before.
gene knocked down | dsRNA no. | infection score, replicate 1 | infection score, replicate 2 | cell count, replicate 1 | outcome
Vha55 | 1 | 0.22 | 11.9 | 454 | inactive
Vha55 | 2 | 3.04 | 4.69 | 1021 | inactive
CG5727 | 1 | 12.8 | 18.1 | 6449 | inactive
CG5727 | 2 | – | 12.4 | 355 | inactive
Sras | 1 | 0.39 | 2.91 | 5965 | inactive
aph-1 | 1 | 2.84 | 2.83 | 6125 | inactive
CG11294 | 1 | 8.72 | 11.1 | 5884 | inactive
CG11294 | 2 | 1.72 | 20.9 | 6396 | inactive
CG12128 + CG1407 | 1 | 19.4 | 17.5 | 5867 | inactive
BBS1 | 1 | 21.6 | 3.19 | 6277 | inactive
CG12194 | 1 | 8.15 | 4.85 | 6257 | inactive
CG12194 | 2 | 8.26 | 16.9 | 2844 | inactive
cmb | 1 | 0.71 | 1.47 | 6583 | inactive
cmb | 2 | 2.14 | 4.26 | 6160 | inactive
Mst85C | 1 | 4.03 | 5.46 | 6446 | inactive
Mst85C | 2 | 1.34 | 4.84 | 6057 | inactive
DIP-theta | 1 | 1.48 | 2.16 | 6130 | inactive
DIP-theta | 2 | 11.2 | 2.15 | 4418 | inactive
Cap-D3 | 1 | 4.03 | 3.33 | 6003 | inactive
Cap-D3 | 2 | 5.28 | – | 1515 | inactive
tud | 1 | 14.5 | 20.3 | 4545 | inactive
ppk22 | 1 | 4.04 | 2.51 | 6517 | inactive
GlcAT-I | 1 | 4.15 | 4.79 | 6162 | inactive
CG7856 | 1 | 14.9 | 7.52 | 4853 | inactive
Pym | 1 | 2.12 | 6.01 | 5945 | inactive
CG2246 | 1 | 8.36 | 1.49 | 969 | inactive
CG31279 | 1 | 3 | 1.38 | 6164 | inactive
CG10801 | 1 | 3.23 | 1.02 | 6973 | inactive
CG30339 | 1 | 0.51 | 1.32 | 6088 | inactive
CG15170 | 1 | – | 13.7 | 646 | inactive
Cpr97Eb | 1 | 5.61 | 4.98 | 6293 | inactive
prt | 1 | 6.63 | 18.1 | 3999 | inactive
CR10032 | 1 | 3.61 | 5.23 | 6423 | inactive
CR10032 | 2 | 9.52 | 3.93 | 6558 | inactive
CG32647 | 1 | 8.07 | 12.1 | 6397 | inactive
CG32647 | 2 | 19.4 | 6.71 | 5769 | inactive
CG4592 | 1 | 12.3 | 7.98 | 6288 | inactive
